Data as given in PubChem BioAssay AID504761 (Drosophila RNAi Screening Center, 2011).

Aim: 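Genome-wide fly cell screen for genes dengue virus requires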 (primary screen)
Cell system: D.Mel-2 cells from Drosophila
Knock-down reagent: long dsRNA against Drosophila genes
Conditions: infection with dengue virus type 2; dose and infection time not stated
Measurement: 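Per well on two replicate plates, imaging gave the percent of cells positive for viral envelope protein, ranked by infection, and a nuclear count of cells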
Scale: infection score: higher = more virus-infected cells; cell count: higher = more cells in the well
Rule for the call: 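Low infection ranks in the two replicates (chance level up to 0.065) followed by a retest with a 1.5-fold or larger significant decrease, p below 0.05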
Calls: active = confirmed: knock-down lowers infection; inactive = not picked or not confirmed
The screen tested about 22,000 reagents; below is an unselected part of those with a known target gene and a result. Of all reagents, 116 (0.52%) got an active call. 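Calls depend on retest data that are not deposited; infection was ranked per plate without normalising between plates; the unit of the infection score is not given.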 Raw values vary from plate to plate and are shown uncorrected. Not all columns of the deposit are shown. The record does not give: the amount of reagent, the time to read-out.

{"gene": "gammaTub23C (GeneID 33501)", "dsRNA": "DRSC00820", "infection score, replicate 1": 2.42, "cell count, replicate 1": 5335, "call": "inactive"}
{"gene": "gammaTub23C (GeneID 33501)", "dsRNA": "DRSC27651", "infection score, replicate 1": 11.7, "cell count, replicate 1": 6704, "call": "inactive"}
{"gene": "Rip11 (GeneID 32850)", "dsRNA": "DRSC20000", "infection score, replicate 1": 3.88, "cell count, replicate 1": 6835, "call": "inactive"}
{"gene": "Rip11 (GeneID 32850)", "dsRNA": "DRSC29902", "infection score, replicate 1": 2.51, "cell count, replicate 1": 6660, "call": "inactive"}
{"gene": "Prosbeta2R2 (GeneID 40621)", "dsRNA": "DRSC12193", "infection score, replicate 1": 6.05, "cell count, replicate 1": 6696, "call": "inactive"}
{"gene": "sosie (GeneID 42961)", "dsRNA": "DRSC14636", "cell count, replicate 1": 339, "call": "inactive"}
{"gene": "sosie (GeneID 42961)", "dsRNA": "DRSC21382", "infection score, replicate 1": 2.36, "cell count, replicate 1": 5471, "call": "inactive"}
{"gene": "sosie (GeneID 42961)", "dsRNA": "DRSC26930", "infection score, replicate 1": 6.52, "cell count, replicate 1": 6230, "call": "inactive"}
{"gene": "CG7231 (GeneID 34086)", "dsRNA": "DRSC03034", "infection score, replicate 1": 1.03, "cell count, replicate 1": 6187, "call": "inactive"}
{"gene": "CG14270 (GeneID 31319)", "dsRNA": "DRSC17913", "infection score, replicate 1": 4.01, "cell count, replicate 1": 6334, "call": "inactive"}
{"gene": "dpr19 (GeneID 34408)", "dsRNA": "DRSC02237", "infection score, replicate 1": 14.4, "cell count, replicate 1": 6427, "call": "inactive"}
{"gene": "alpha-Est1 (GeneID 40909)", "dsRNA": "DRSC12612", "infection score, replicate 1": 2.68, "cell count, replicate 1": 6682, "call": "inactive"}
{"gene": "lark (GeneID 38811)", "dsRNA": "DRSC11362", "infection score, replicate 1": 2.02, "cell count, replicate 1": 4069, "call": "inactive"}
{"gene": "lark (GeneID 38811)", "dsRNA": "DRSC25108", "infection score, replicate 1": 3.13, "cell count, replicate 1": 4252, "call": "inactive"}

Part of the list above, set out differently:
sosie (GeneID 42961) [DRSC14636]
- cell count, replicate 1: 339
- call: inactive

sosie (GeneID 42961) [DRSC21382]
- infection score, replicate 1: 2.36
- cell count, replicate 1: 5471
- call: inactive
